Measurements as given in ChEMBL document CHEMBL4118135, “Optimized allosteric inhibition of engineered protein tyrosine phosphatases with an expanded palette of biarsenical small molecules” (Bioorg Med Chem, 2018).

What was measured:
[1] = system: Tyrosine-protein phosphatase non-receptor type 7 (Homo sapiens), P35236 [UNDEFINED MUTATION]; assay: Inhibition of Inhibition of allosterically sensitized mutant form of His6-tagged […] human HePTP catalytic domain overexpressed in Escherichia coli BL21(DE3) cells at 25 uM using pNPP as substrate incubated for 90 mins by quenched phosphatase activity assay
[2] = target: T1, Tyrosine-protein phosphatase non-receptor type 7 (Homo sapiens) (UniProt P35236); assay: Inhibition of His6-tagged wild type human HePTP catalytic domain overexpressed in Escherichia coli BL21(DE3) cells at 25 uM using pNPP as substrate incubated for 90 mins by quenched phosphatase activity assay
T1 sequence (whole entry): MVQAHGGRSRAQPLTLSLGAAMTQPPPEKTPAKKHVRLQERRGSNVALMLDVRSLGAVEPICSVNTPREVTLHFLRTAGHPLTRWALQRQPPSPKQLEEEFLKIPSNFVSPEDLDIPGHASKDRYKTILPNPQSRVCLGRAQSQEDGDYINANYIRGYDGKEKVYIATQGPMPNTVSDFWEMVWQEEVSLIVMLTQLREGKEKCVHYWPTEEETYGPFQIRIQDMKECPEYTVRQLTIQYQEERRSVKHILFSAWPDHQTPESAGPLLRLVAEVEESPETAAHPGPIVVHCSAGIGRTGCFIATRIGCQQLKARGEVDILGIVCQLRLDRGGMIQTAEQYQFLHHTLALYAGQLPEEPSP

[3] = target: T1, Tyrosine-protein phosphatase non-receptor type 7 (Homo sapiens); assay: Binding affinity to His6-tagged human wild-type HePTP catalytic domain overexpressed in Escherichia coli BL21(DE3) cells at 25 uM after 90 mins by SDS-PAGE analysis
[4] = system: T2, Tyrosine-protein phosphatase non-receptor type 7 (Homo sapiens), P35236 [P171C,V205C]; assay: Binding affinity to allosterically sensitized mutant form of His6-tagged human HePTP catalytic domain overexpressed in Escherichia coli BL21(DE3) cells at 25 uM after 90 mins by SDS-PAGE analysis
T2 sequence (whole entry): T1 sequence (whole entry) with P171C, V205C

SMILES: O=C(O)c1c(Cl)c(Cl)c(Cl)c(Cl)c1-c1c2ccc(=O)c([As]3SCCS3)c-2oc2c([As]3SCCS3)c(O)ccc12
- inhibition [1]: 60%
- inhibition [2]: inactive
- Activity [3]: inactive
- Activity [4]: Active

Substitutions are numbered along the chain they refer to. Active and inactive are the calls of the source. No cut-off for these calls is given here.
